By UniProt entry, the sequences of proteins in these tests, tags left out.
UniProt P35499, whole entry: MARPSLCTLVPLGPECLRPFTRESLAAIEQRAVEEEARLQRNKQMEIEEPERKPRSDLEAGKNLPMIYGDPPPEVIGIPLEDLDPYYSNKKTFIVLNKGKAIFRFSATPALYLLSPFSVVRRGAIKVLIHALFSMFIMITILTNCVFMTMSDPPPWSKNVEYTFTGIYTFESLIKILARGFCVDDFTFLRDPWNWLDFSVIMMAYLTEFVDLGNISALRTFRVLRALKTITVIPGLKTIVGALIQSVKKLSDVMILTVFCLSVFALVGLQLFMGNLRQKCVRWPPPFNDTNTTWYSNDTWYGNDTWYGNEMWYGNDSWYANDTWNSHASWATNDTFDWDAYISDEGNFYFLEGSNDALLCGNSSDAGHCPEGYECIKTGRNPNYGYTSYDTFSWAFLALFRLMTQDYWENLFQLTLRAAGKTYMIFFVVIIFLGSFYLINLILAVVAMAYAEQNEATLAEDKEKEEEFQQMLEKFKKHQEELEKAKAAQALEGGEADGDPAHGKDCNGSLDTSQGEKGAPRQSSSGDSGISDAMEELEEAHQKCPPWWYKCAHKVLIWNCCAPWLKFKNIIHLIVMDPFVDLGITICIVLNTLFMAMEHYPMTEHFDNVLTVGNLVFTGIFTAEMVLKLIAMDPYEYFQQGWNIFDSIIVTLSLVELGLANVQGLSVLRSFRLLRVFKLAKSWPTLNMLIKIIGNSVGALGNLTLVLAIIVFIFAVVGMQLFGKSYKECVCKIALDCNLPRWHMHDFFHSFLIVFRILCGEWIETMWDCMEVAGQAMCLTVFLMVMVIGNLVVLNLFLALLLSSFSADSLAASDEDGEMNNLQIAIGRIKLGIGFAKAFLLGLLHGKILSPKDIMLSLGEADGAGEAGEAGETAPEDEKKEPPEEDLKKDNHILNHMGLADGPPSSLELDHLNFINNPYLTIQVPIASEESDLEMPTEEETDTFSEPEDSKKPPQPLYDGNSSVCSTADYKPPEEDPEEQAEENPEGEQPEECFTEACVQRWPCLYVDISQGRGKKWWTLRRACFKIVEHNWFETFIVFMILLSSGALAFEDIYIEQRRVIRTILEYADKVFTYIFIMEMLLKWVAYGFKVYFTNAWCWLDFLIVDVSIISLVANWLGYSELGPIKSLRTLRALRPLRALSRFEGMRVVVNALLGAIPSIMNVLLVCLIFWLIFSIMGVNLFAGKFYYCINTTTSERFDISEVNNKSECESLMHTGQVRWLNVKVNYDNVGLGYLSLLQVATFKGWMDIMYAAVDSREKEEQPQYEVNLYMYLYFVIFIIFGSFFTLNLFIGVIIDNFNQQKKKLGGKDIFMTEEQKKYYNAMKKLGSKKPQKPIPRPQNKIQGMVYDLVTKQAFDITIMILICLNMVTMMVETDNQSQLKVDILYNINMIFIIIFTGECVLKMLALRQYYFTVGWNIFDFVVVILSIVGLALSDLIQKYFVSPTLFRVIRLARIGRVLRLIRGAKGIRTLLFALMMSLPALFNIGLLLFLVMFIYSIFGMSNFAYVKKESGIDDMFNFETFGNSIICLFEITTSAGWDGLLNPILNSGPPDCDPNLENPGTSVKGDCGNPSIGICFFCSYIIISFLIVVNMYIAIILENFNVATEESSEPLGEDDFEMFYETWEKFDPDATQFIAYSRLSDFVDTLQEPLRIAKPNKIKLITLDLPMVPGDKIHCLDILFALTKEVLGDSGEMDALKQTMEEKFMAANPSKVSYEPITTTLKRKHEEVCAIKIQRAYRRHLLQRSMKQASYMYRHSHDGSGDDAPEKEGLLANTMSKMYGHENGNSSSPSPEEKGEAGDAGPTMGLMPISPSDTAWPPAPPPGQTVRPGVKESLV

According to article PMC6669574, “Effect of Conformational Diversity on the Bioactivity of µ-Conotoxin PIIIA Disulfide Isomers” (2019):

Target: human NaV1.4 channels (Homo sapiens, UniProt P35499)
Test: Whole-cell patch clamp, block of depolarization-elicited Na+ inward currents

SMILES: CC(C)C[C@H](NC(=O)[C@H](CCCNC(=N)N)NC(=O)[C@@H]1CCC(=O)N1)C(=O)N[C@H]1CSSC[C@@H]2NC(=O)[C@H](CCC(N)=O)NC(=O)[C@H](CCCNC(=N)N)NC(=O)[C@H](CO)NC(=O)[C@H](CCCNC(=N)N)NC(=O)[C@@H]3CSSC[C@@H](C(N)=O)NC(=O)[C@H](CSSC[C@H](NC1=O)C(=O)NCC(=O)N[C@@H](Cc1ccccc1)C(=O)N1C[C@H](O)C[C@H]1C(=O)N[C@@H](CCCCN)C(=O)N[C@@H](CO)C(=O)N3)NC(=O)[C@H](CCCNC(=N)N)NC(=O)[C@H](Cc1c[nH]cn1)NC(=O)[C@@H]1C[C@@H](O)CN1C(=O)[C@H](CCCCN)NC2=O (single isomer, unassigned)
- IC50: 105 nM
- remaining current component (saturating concentration of 100 µM, HEK293, human NaV1.4): 7.2 ± 2.2%
